# Share of PSTVd loop 6 variants by leaf site

Source: Wu et al. 2024 (doi:10.1371/journal.ppat.1012142), supplementary data.

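A pool of all variants was put on leaves of three Nicotiana benthamiana plants. Progeny were sequenced from the inoculated region (day 5), the margin of the inoculated leaf (day 10) and systemic leaves (day 12).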

The pool varies loop 6 of the PSTVd intermediate strain in the pattern UNNNCGNNNG; wild type is UGACCGCGAG (upper and lower strand joined, each 5' to 3', the first 5 letters being the upper strand, closing pairs included).

Values are reads per thousand in the sample; higher means more abundant, 0 means not found.
Each site shows the three plants.
"Pool" is the share in the plasmid pool used as inoculum, on the same scale.
The inoculated region was read from the minus strand, the other sites from the plus strand.
The authors trace changes outside the varied positions to PCR and sequencing errors or to mutation in the plant; presence does not show that a variant is infectious alone.
For reference, wild type rose from 20.7 per thousand in the pool to 195, 198, 203 (inoculated region), 629, 591, 734 (leaf margin) and 942, 870, 868 (systemic leaves).
With 36,220-57,551 reads a sample, very low values are single reads.

sequence,pool,inoculated region,leaf margin,systemic leaves
UUGUAGGGCG,0.0131,0 / 0 / 0,0 / 0 / 0,0 / 0 / 0
UUGUCAGCGG,0.0131,0 / 0 / 0,0 / 0 / 0,0 / 0 / 0
UUGUCCUGUG,0.0131,0 / 0 / 0,0 / 0 / 0,0 / 0 / 0
UUGUCGAAAG,0.209,0.104 / 0.0719 / 0.0738,0.0276 / 0 / 0.0232,0 / 0 / 0
UUGUCGAACG,0.405,0.0348 / 0.0539 / 0.0553,0 / 0 / 0,0 / 0 / 0
UUGUCGAAGG,0.235,0.0521 / 0.0539 / 0.0369,0 / 0 / 0,0 / 0 / 0
UUGUCGAAUG,0.353,0.0869 / 0.108 / 0.0922,0 / 0 / 0,0 / 0 / 0
UUGUCGACAG,0.288,0.122 / 0.108 / 0.0184,0 / 0 / 0.0232,0 / 0 / 0.0205
UUGUCGACCG,0.261,0.0869 / 0.0359 / 0.111,0 / 0 / 0,0 / 0 / 0
UUGUCGACGG,0.235,0.174 / 0.0898 / 0.129,0 / 0 / 0,0 / 0 / 0
UUGUCGACUG,0.340,0.0695 / 0.0898 / 0.111,0 / 0 / 0.0232,0 / 0 / 0.0205
UUGUCGAGAG,0.431,0.156 / 0.126 / 0.0738,0 / 0.0504 / 0.0464,0 / 0 / 0
UUGUCGAGCG,0.301,0.0695 / 0.108 / 0.129,0 / 0 / 0,0 / 0 / 0
UUGUCGAGGG,0.131,0.261 / 0.126 / 0.111,0.0276 / 0 / 0.0464,0 / 0 / 0
UUGUCGAGUG,0.340,0.0869 / 0.144 / 0.184,0 / 0 / 0.0232,0 / 0 / 0
UUGUCGAUAG,0.510,0.226 / 0.0539 / 0.0369,0 / 0 / 0.232,0 / 0 / 0
UUGUCGAUCG,0.340,0.104 / 0.0719 / 0.0553,0 / 0 / 0,0 / 0 / 0
UUGUCGAUGG,0.379,0.104 / 0.0539 / 0.0922,0 / 0 / 0,0 / 0 / 0
UUGUCGAUUG,0.562,0.156 / 0.108 / 0.0738,0 / 0 / 0,0 / 0 / 0
UUGUCGCAAG,0.144,0.139 / 0.144 / 0.240,0 / 0 / 0,0 / 0 / 0
UUGUCGCACG,0.209,0.209 / 0.162 / 0.0553,0 / 0 / 0.0464,0 / 0 / 0
UUGUCGCAGG,0.275,0.122 / 0.0539 / 0.111,0 / 0 / 0.0232,0 / 0 / 0
UUGUCGCAUG,0.222,0.0695 / 0.180 / 0.184,0 / 0 / 0.0232,0 / 0 / 0
UUGUCGCCAG,0.261,0.0521 / 0.0719 / 0.0738,0 / 0 / 0.0232,0 / 0 / 0
UUGUCGCCCG,0.366,0.104 / 0.0719 / 0.0553,0.0276 / 0 / 0,0 / 0 / 0
UUGUCGCCGG,0.222,0.104 / 0.126 / 0.0553,0 / 0 / 0,0 / 0 / 0
UUGUCGCCUG,0.261,0.209 / 0.0719 / 0.111,0.0276 / 0.126 / 0.0232,0 / 0 / 0
UUGUCGCGAG,0.327,0.313 / 0.305 / 0.166,0.0552 / 1.21 / 0.0464,0.0539 / 0 / 0.0615
UUGUCGCGCG,0.248,0.139 / 0.0539 / 0.0738,0 / 0 / 0.0232,0 / 0 / 0
UUGUCGCGGG,0.248,0.0695 / 0.0898 / 0.111,0.0276 / 0 / 0,0 / 0 / 0
UUGUCGCGUG,0.209,0.122 / 0.126 / 0.111,0 / 0.0504 / 0.0232,0 / 0 / 0
UUGUCGCUAG,0.235,0.174 / 0.0898 / 0.0369,0 / 0 / 0,0 / 0 / 0
UUGUCGCUCG,0.327,0.122 / 0.108 / 0.111,0 / 0 / 0,0 / 0 / 0
UUGUCGCUGG,0.222,0.0869 / 0.0898 / 0.0553,0.0276 / 0 / 0,0 / 0 / 0
UUGUCGCUUG,0.288,0.104 / 0.0898 / 0.0738,0 / 0 / 0,0 / 0 / 0
UUGUCGGAAG,0.209,0.156 / 0.126 / 0.0922,0 / 0 / 0,0 / 0 / 0
UUGUCGGACG,0.248,0.104 / 0.0180 / 0.0922,0 / 0 / 0,0 / 0 / 0
UUGUCGGAGA,0.0131,0 / 0 / 0,0 / 0 / 0,0 / 0 / 0
UUGUCGGAGG,0.170,0.0521 / 0.0539 / 0.0184,0 / 0 / 0,0 / 0 / 0
UUGUCGGAUG,0.301,0.139 / 0.0719 / 0.0738,0.0276 / 0 / 0,0 / 0 / 0
UUGUCGGCAG,0.353,0.139 / 0 / 0.111,0 / 0 / 0.0232,0 / 0 / 0
UUGUCGGCCG,0.288,0.0869 / 0.126 / 0.0184,0 / 0 / 0.0232,0 / 0 / 0
UUGUCGGCGG,0.235,0.0695 / 0.0719 / 0.148,0 / 0 / 0,0 / 0 / 0.0205

The last 4 entries again:

sequence,pool,inoculated region,leaf margin,systemic leaves
UUGUCGGAUG,0.301,0.139 / 0.0719 / 0.0738,0.0276 / 0 / 0,0 / 0 / 0
UUGUCGGCAG,0.353,0.139 / 0 / 0.111,0 / 0 / 0.0232,0 / 0 / 0
UUGUCGGCCG,0.288,0.0869 / 0.126 / 0.0184,0 / 0 / 0.0232,0 / 0 / 0
UUGUCGGCGG,0.235,0.0695 / 0.0719 / 0.148,0 / 0 / 0,0 / 0 / 0.0205